From paper PMC8878317, “Chemogenomics identifies acetyl-coenzyme A synthetase as a target for malaria treatment and prevention” (Cell Chemical Biology, 2022) come the findings set out here.

Where only a bound is given, the exact number is not on record here.

The subject of assay [1] is P. falciparum MMV019721-resistant lines (3D7-A10 or Dd2-B2 derived). The assay can be described thus: Dose-response assay of MMV019721-selected resistant lines (bulk cultures and clones). The class given is cell-based. On the procedure: For in vitro–selected lines, drug susceptibility was measured by SYBR Green I–based assay ([Johnson et al., 2007]; [Smilkstein et al., 2004]). Ring-stage parasites were cultured for 72 hr at 1% hematocrit and 1% starting parasitemia in 384-well black clear-bottom plates containing test compounds plated in triplicate in 12-point serial dilutions. Lysis buffer (0.16% w/v saponin, 1.6% Triton X-100, 5 mM EDTA, and 20 mM Tris-HCl, pH 7.4) with SYBR Green I fluorescent dye (Invitrogen) was added, and fluorescence readings were taken (excitation at 494 nm, emission at 530 nm). Alternatively, Dd2-B2 ring-stage cultures at 0.3% parasitemia and 1% hematocrit were exposed for 72 hr to a range of ten drug concentrations that were 2-fold serially diluted in duplicates along with drug-free controls. Parasite survival was assessed by flow cytometry on an Accuri C6 (BD Biosciences) using SYBR Green and MitoTracker Deep Red FM (Life Technologies) as nucleic acid stain and vital dyes respectively. EC50 values were calculated using a nonlinear regression curve fit in Prism Software version 8 (GraphPad).
Bulk cultures were tested for reduced drug susceptibility and individual clones were isolated by limiting dilution.

The test system of another assay is PfAcAS T648M. The assay can be described thus: EnzChek assay, recombinant PfAcAS T648M. The class given is biochemical, P. falciparum. The protocol:
(§1) Steady-state kinetic measurements were conducted at room temperature using a PheraStar plate reader (BMG). The first step of the reaction of PfAcAS, which produces inorganic pyrophosphate (PPi) that is converted to two molecules of inorganic phosphate using a pyrophosphatase enzyme, was continuously monitored using the EnzChek Phosphate Assay Kit, which gives an absorbance readout at 360 nm (Figure 4A) ([Webb, 1992]). […] By adding CoA, the reaction rapidly proceeds to the second step resulting in further release of pyrophosphate, making the EnzChek assay a suitable option to continuously monitor the activity of PfAcAS. Typical kinetic assays were carried out in clear, flat-bottom, polystyrene, 384-well plates (Greiner) in an 80 μL reaction volume containing 100 mM HEPES (pH7.4), 100 mM NaCl, 250 mM KCl, 50 mM MgCl2, 1 mM DTT, 0.004% Tween 20, 0.5 U/mL pyrophosphatase, 0.1 mM MESG, 0.5 U/mL PNP, 2 mM ATP, 2 mM acetate, 0.5 mM CoA and 5 nM recombinant PfAcAS WT or 10 nM recombinant PfAcAS A597V or T648M. […] The reactions were carried out for 2 to 4 hr with absorbance readings at 360 nm every two to four minutes. […] The substrates Km values were determined by varying the concentration of one of the substrates at saturating concentration of the other two substrates. […]

A further assay relates to PfAcAS A597V. Put plainly: EnzChek assay, recombinant PfAcAS A597V. The class given is biochemical, P. falciparum. On the procedure:
as §1

Assay [2] concerns histone acetylation in P. falciparum Dd2-A597V. The following applies: trophozoites, 3 h exposure.

With `CCN(CC)S(=O)(=O)c1ccc(Cl)c(C(=O)Nc2ccc3nc(C)sc3c2)c1` [MMV019721], in assay [1] (clones isolated upon exposure to MMV019721), the “average fold shift in the EC50 of resistant clones” value was found to be 12 fold. Moreover, in assay [1] (five clones with PfAcAS A597V), the “average fold shift in EC50 over wild-type parasites, A597V clones” value was 15 fold. The “fold resistance over wild-type parasites, clones with PfAcAS amplification” value in assay [1] (two clones, amplification on chromosome 6 containing PfAcAS) was around 3.5 fold. The “fold increase of IC50, PfAcAS T648M vs WT” value in the assay with PfAcAS T648M is given as 246 fold. Besides, the “fold increase of IC50, PfAcAS A597V vs WT” value in the assay with PfAcAS A597V was 94 fold. Further, in assay [2], the “histone acetylation in Dd2-A597V-resistant line” value is “protection”.
On to `O=C(NNC(=O)c1csnn1)c1ccc(Cl)cc1` [MMV084978], for which the “fold increase of IC50, PfAcAS T648M vs WT” value in the assay with PfAcAS T648M was above 271 fold. In the assay with PfAcAS A597V, the “fold increase of IC50, PfAcAS A597V vs WT” value was above 271 fold.
